Anti-infective test results gathered from many reports (values: NIAID ChemDB through PubChem).

Common to all: tests in culture; agent: Herpes simplex virus 2; read-out: EC50

An empty or dashed field is not shown.

| compound | method | strain or isolate | cell line | result |
|---|---|---|---|---|
| Cc1nc2c(=O)[nH]c(N)nc2n1COCCO | cytopathic effect |  | PRK | 0.5 µg/mL |
| O=[N+]([O-])c1cc([C@H]2C[C@H](O)[C@@H](CO)O2)c(F)cc1F | cytopathic effect | LYONS | E6SM | >400 µg/mL |
| CCOC(=O)C1Sc2nnc(-c3cn(-c4ccccc4)nc3-c3ccccc3)n2NC1=O | cytopathic effect | G | HEL | >80 µg/mL |
| Nc1nc(=O)n([C@@H]2O[C@H](CO)[C@@H](O)[C@@H]2F)cc1I | plaque count | G-FMAU-C1 | VERO | 18 µM |
| CC[C@@H](O)C1=C[C@@H](n2cnc3c(N)ncnc32)[C@H](O)[C@@H]1O | cytopathic effect | G | E6SM | >400 µg/mL |
| CCCCC(C)(C)[C@H](O)/C=C/[C@H]1C=CC(=O)[C@@H]1CCCCCCC(=O)O | hybridisation | G | HFF | 5.7 µg/mL |
| CN1C=CCC(C(=O)O[C@H]2C[C@H](n3cc(/C=C/I)c(=O)[nH]c3=O)O[C@@H]2CO)=C1 | cytopathic effect |  | HFF | 0.08 µM |
| CC(C)O[C@@H]1[C@H](OC(C)C)[C@@H](COS(=O)(=O)NC(=O)O[C@H]2O[C@H](COC(=O)c3ccccc3)[C@H](OC(=O)c3ccccc3)[C@H](OC(=O)c3ccccc3)[C@H]2OC(=O)c2ccccc2)O[C@H]1n1ccc(=O)[nH]c1=O | plaque count | Lovelace | VERO | 35 µg/mL |
| O=c1c2ncn(COC(CO)CO)c2[nH]c2nccn12 | cytopathic effect | LYONS |  | 0.7 µg/mL |
| CC[C@H](O)C1=C[C@@H](n2cnc3c(N)ncnc32)[C@H](O)[C@@H]1O | cytopathic effect | G | E6SM | >200 µg/mL |
| O=c1c2ncn(COCCO)c2[nH]c2ncc(C(c3ccccc3)(c3ccccc3)c3ccccc3)n12 | cytopathic effect | 196 |  | >16 µg/mL |
| C=CCN=C1NN=C(C(C)N2C(=O)c3ccccc3C2=O)CS1 | cytopathic effect | SAV | VERO | >333 µg/mL |
| NC1=CC(c2ccccc2)=Nn2c(nnc2-c2cn(-c3ccccc3)nc2-c2ccccc2)S1 | cytopathic effect | G | HEL | >80 µg/mL |
| CN(C)c1nc2c(=O)[nH]c(N)nc2n1COCCO | cytopathic effect |  | PRK | 250 µg/mL |
| Nc1nc2c(ncn2CCC(CO)CO)c(=O)[nH]1 | cytopathic effect |  | VERO | 0.1–1 µM |
| O=c1[nH]c(=O)n([C@H]2C[C@H](O)[C@@H](CO)O2)cc1/C=C/I | cytopathic effect |  | HFF | 4 µM |
| Cc1cc([C@@H]2C[C@H](O)[C@@H](CO)O2)c(F)cc1Cl | cytopathic effect | LYONS | E6SM | >400 µg/mL |
| CC(C)O[C@@H]1[C@H](OC(C)C)[C@@H](COS(=O)(=O)NC(=O)O[C@H]2O[C@H](COC(=O)c3ccccc3)[C@@H](OC(=O)c3ccccc3)[C@H](OC(=O)c3ccccc3)[C@@H]2OC(=O)c2ccccc2)O[C@H]1n1ccc(=O)[nH]c1=O | plaque count | Lovelace | VERO | >100 µg/mL |
| Nc1cc([C@H]2C[C@H](O)[C@@H](CO)O2)c(F)cc1F | cytopathic effect | G | E6SM | >400 µg/mL |
| Nc1nc2c(nc(N3CCCCC3)n2COCCO)c(=O)[nH]1 | cytopathic effect |  | PRK | 150 µg/mL |
| O=C(Nn1c(-c2cn(-c3ccccc3)nc2-c2ccccc2)n[nH]c1=S)c1ccccc1 | cytopathic effect | G | HEL | >16 µg/mL |
| NC1=NC2C(C=CN2CC(CO)CCO)C(=O)N1 | cytopathic effect |  | VERO | 0.01–0.1 µM |
| Cc1cccn2c(C3OCCO3)cnc12 |  | G | E6SM | >1000 µM |
| C=C[C@@H](O)C1=C[C@@H](n2cnc3c(N)ncnc32)[C@H](O)[C@@H]1O | cytopathic effect | G | E6SM | >200 µg/mL |
| O=C1c2ccccc2C(=O)N1CCCC1=NNC(=Nc2ccccc2)SC1 | cytopathic effect | SAV | VERO | 73.05 µg/mL |
| Cc1ccn2c(C3OCCO3)cnc2c1 |  | G | E6SM | >1000 µM |
| CC(=O)OCCOCn1cnc2c(=O)n3cc(-c4ccc5ccccc5c4)[nH]c3nc21 | cytopathic effect | 196 |  | >16 µg/mL |
| O=C(NS(=O)(=O)OCCOCn1ccc(=O)[nH]c1=O)O[C@H]1O[C@H](COCc2ccccc2)[C@@H](OCc2ccccc2)[C@H](OCc2ccccc2)[C@H]1OCc1ccccc1 | plaque count | Lovelace | VERO | 25 µg/mL |
| Nc1nc2c(ncn2COCCO)c(=O)[nH]1 | plaque count | 91075 | HEL | 0.4 µM |
| O=c1c2ncn(COCCO)c2nc2[nH]c(-c3ccccc3)c(-c3ccc(C(c4ccccc4)c4ccccc4)cc3)n12 | cytopathic effect | 196 |  | >16 µg/mL |
| O=C(NS(=O)(=O)OC[C@H]1O[C@@H](n2ccc(=O)[nH]c2=O)[C@H](O)[C@@H]1O)O[C@H]1O[C@H](COC(=O)c2ccccc2)[C@@H](OC(=O)c2ccccc2)[C@H](OC(=O)c2ccccc2)[C@H]1OC(=O)c1ccccc1 | plaque count | Lovelace | VERO | 26 µg/mL |
| OC[C@H]1O[C@@H](c2cc(F)c(F)cc2F)C[C@@H]1O | cytopathic effect | 196 | E6SM | >400 µg/mL |
| Nc1nc2c(ncn2COCCO)c(=O)[nH]1 | cytopathic effect | V72019 (acyclovir-susceptible) | HFF | 0.5 µg/mL |
| OC[C@H]1O[C@H](c2cc(Cl)c(F)cc2F)C[C@@H]1O | cytopathic effect | 196 | E6SM | >400 µg/mL |
| COc1ccc(-c2[nH]c3nc4c(ncn4COCCO)c(=O)n3c2-c2ccc(C(c3ccccc3)c3ccccc3)cc2)cc1 | cytopathic effect | LYONS |  | >16 µg/mL |
| O=c1[nH]c(=O)n([C@@H]2O[C@H](CO)[C@@H](O)[C@@H]2F)cc1I | plaque count | G-FAC-C1 | VERO | 17 µM |
| OC[C@H]1O[C@H](c2cc(Br)c(F)cc2F)C[C@@H]1O | cytopathic effect | G | E6SM | >400 µg/mL |
| Nc1ccn([C@H]2O[C@@H](CO)[C@H](O)[C@H]2F)c(=O)n1 | plaque count | G-FIAC-C1 | VERO | 3.3 µM |
| COc1cc(F)c([C@H]2C[C@H](O)[C@@H](CO)O2)cc1[N+](=O)[O-] | cytopathic effect | G | E6SM | >400 µg/mL |
| CN1C=CCC(C(=O)O[C@H]2C[C@H](n3cc(I)c(=O)[nH]c3=O)O[C@@H]2CO)=C1 | cytopathic effect |  | HFF | 1.2 µM |
| CC(C)OC1[C@H](n2ccc(=O)[nH]c2=O)O[C@H](COS(=O)(=O)NC(=O)NC[C@H]2O[C@H](COCc3ccccc3)[C@@H](OCc3ccccc3)[C@H](OCc3ccccc3)[C@H]2OCc2ccccc2)[C@H]1OC(C)C | plaque count | Lovelace | VERO | 45 µg/mL |
| Nc1nc2c(ncn2CC[C@@H](O)CO)c(=O)[nH]1 | plaque count | 72 | VERO | 4 µM |
| Cn1cc(C(=O)NCc2ccc(Cl)cc2)c(=O)c2cc(CN3CCOCC3)ccc21 | plaque count | 35D | VERO | 4.6 µM |
| Nc1nc2c(ncn2[C@@H]2C[C@H](CO)[C@H]2CO)c(=O)[nH]1 | cytopathic effect |  | VERO | 0.01–0.1 µM |
| Cc1cccn2c(C3OCCS3)cnc12 |  | G | E6SM | >1000 µM |
| O=c1ccn([C@@H]2O[C@H](CO)[C@@H](O)[C@@H]2F)c(=O)[nH]1 | plaque count | G-FAC-C1 | VERO | 140 µM |
| CC(C)O[C@@H]1[C@H](OC(C)C)[C@@H](COS(=O)(=O)NC(=O)O[C@@H]2C[C@@H](OC(=O)c3ccccc3)[C@H](OC(=O)c3ccccc3)[C@@H](COC(=O)c3ccccc3)O2)O[C@H]1n1ccc(=O)[nH]c1=O | plaque count | Lovelace | VERO | 66 µg/mL |
| S=c1[nH]nc(-c2cn(-c3ccccc3)nc2-c2ccccc2)o1 | cytopathic effect | G | HEL | >16 µg/mL |
| Nc1nc2c(ncn2COCCO)c(=O)[nH]1 | plaque count | 333 | VERO | 0.6 µM |
| Cc1cc([C@H]2C[C@H](O)[C@@H](CO)O2)c(F)cc1F | cytopathic effect | LYONS | E6SM | >400 µg/mL |
| O=c1[nH]n2c(-c3cn(-c4ccccc4)nc3-c3ccccc3)nnc2s1 | cytopathic effect | G | HEL | >16 µg/mL |
| CCc1cn([C@H]2C[C@H](O)[C@@H](CO)O2)c(=O)[nH]c1=O | plaque count | G-FIAC-C1 | VERO | 257 µM |

Repeating the final 5 entries:

compound | method | strain or isolate | cell line | result
S=c1[nH]nc(-c2cn(-c3ccccc3)nc2-c2ccccc2)o1 | cytopathic effect | G | HEL | >16 µg/mL
Nc1nc2c(ncn2COCCO)c(=O)[nH]1 | plaque count | 333 | VERO | 0.6 µM
Cc1cc([C@H]2C[C@H](O)[C@@H](CO)O2)c(F)cc1F | cytopathic effect | LYONS | E6SM | >400 µg/mL
O=c1[nH]n2c(-c3cn(-c4ccccc4)nc3-c3ccccc3)nnc2s1 | cytopathic effect | G | HEL | >16 µg/mL
CCc1cn([C@H]2C[C@H](O)[C@@H](CO)O2)c(=O)[nH]c1=O | plaque count | G-FIAC-C1 | VERO | 257 µM

Neighbouring rows are from separate reports. Two numbers with a dash give a range or band. ECn: concentration that inhibits the pathogen or its effect by n%.